Assay type in all cases: cell-based, Mycoplasma gallisepticum
The test system of series [1] is M. gallisepticum strain S6. The series is described as follows: Static time-kill curves and Sigmoid Emax fit of kill rate. Here is the method:
Based on the MIC value from broth microdilution method, 7 mL blank medium, 0.2 mL amphenmulin solution, and 0.8 mL M. gallisepticum suspension were taken into 10-mL Celine bottles to make the final mycoplasma count of 10^7 CFU/mL, as well as final concentrations of amphenmulin of 1, 2, 4, 6, 8, 16, 32, and 64 MIC, respectively. Growth control (without drug) and negative control (blank medium) were also set up for culture. Then at 0, 6, 9, 12, 24, 36, and 48 h, 100 µL of each culture was taken for counting using the aforementioned method, with a lower limit of 100 CFU/mL. The experiment was repeated three times.
The efficacy of amphenmulin against M. gallisepticum was measured by the kill rate per unit of time. Considering the growth of M. gallisepticum observed in preliminary experiments, this study selected seven time periods of 0–24, 0–36, 0–48, 6–24, 6–36, 6–48, and 12–48 h to calculate the kill rates of amphenmulin. The Sigmoid Emax model in Phoenix was used to fit the relationship between mean kill rate and drug concentration, which is shown below:
E, kill rate of amphenmulin against M. gallisepticum within a period; E0, change rate of M. gallisepticum in the control group (without drug); Emax, maximum kill rate within a period; Ce, concentration of amphenmulin; EC50, drug concentration at half-maximal kill rate; N, Hill coefficient, reflecting the slope of the kill rate–concentration curve.

In series [2] the test system is M. gallisepticum. The series is described as follows: PK/PD integration, inhibitory Sigmoid Emax model. Here is the method: Phoenix software was used to analyze the in vitro concentration–time data of amphenmulin and calculate the AUC and peak concentration (Cmax), which were combined with MIC to obtain PK/PD parameters. Concurrently, the anti-mycoplasma effect was derived from the dynamic time–kill curve, which was analyzed with the PK/PD index using an inhibitory Sigmoid Emax model as follows:
E=E0−(E0−Emax)×CeN/EC50N+CeN
E, anti-mycoplasma effect, the change in M. gallisepticum counts during 24 h of cultivation; E0, M. gallisepticum change in control (without drug); Emax, maximal effect produced by amphenmulin against M. gallisepticum during 24 h; Ce, PK/PD parameters (AUC/MIC or Cmax/MIC); EC50, the Ce value needed to produce 50% of maximal effect; N, Hill coefficient, the slope of the fitted curve.

Series [3] concerns M. gallisepticum. As to the kind of experiment: In vitro dynamic model (one-compartment, first-order elimination). The note with it: doses of 0.1–1.5 μg/mL. Here is the method: According to previous reports ([21][–][23]), an in vitro model compatible with M. gallisepticum growth and amphenmulin pharmacokinetics was developed ([24]). It comprised a reservoir chamber containing fresh, drug-free medium; a reaction chamber with a three-necked flask where amphenmulin interacts with M. gallisepticum, containing 300 mL of medium in the outer chamber (external compartment, EC) and 10 mL of M. gallisepticum culture (10^7 CFU/mL) in a semipermeable membrane chamber (internal compartment, IC); and a waste chamber collecting effluent, which were connected via tubing and controlled by a peristaltic pump (Fig. 2). In this model, the flow rate was calculated as 1.63 mL/min from the reaction chamber volume and amphenmulin’s elimination half-life (T1/2Ke) after intravascular administration in chickens, enabling dynamic changes in drug concentrations that simulate amphenmulin elimination in chickens and its activity against M. gallisepticum. The in vitro elimination of amphenmulin followed first-order kinetics:
where C0 is the initial amphenmulin concentration, C is the amphenmulin concentration at time t, k is the elimination rate constant, and t is the time after dosing. Based on the maximum concentration reached in chickens after oral administration of amphenmulin, six dosing regimens of 0.1, 0.2, 0.5, 0.8, 1.0, and 1.5 µg/mL were designed, administered every 24 h for three times. By injecting the drug into both sides of the dialysis membrane simultaneously, the drug concentrations inside and outside the membrane reached equilibrium rapidly. Samples from the reaction chamber were collected at 0.083, 0.167, 0.25, 0.50, 0.75, 1, 2, 3, 4, 6, 9, 12, 24, 24.08, 25, 30, 36, 48.08, 54, 60, and 72 h after dosing for determination of amphenmulin concentration. […]
The determination of amphenmulin in the medium referenced our laboratory’s method for extracting tiamulin ([25]) and was also detected by the HPLC-MS/MS method mentioned in the PK section.

As to `C=C[C@]1(C)C[C@@H](OC(=O)CSc2ccccc2N)[C@]2(C)[C@H](C)CC[C@]3(CCC(=O)[C@H]32)[C@@H](C)[C@@H]1O` [amphenmulin, 22-(2-amino-phenylsulfanyl)-22-deoxypleuromutilin], the “Hill′s slope” value is reported as 0.9238 in series [1] (period 0–24 h); 0.4264 in series [1] (period 0–36 h); 0.3760 in series [1] (period 0–48 h); 2.7101 in series [1] (period 6–24 h); 2.9068 in series [1] (period 6–36 h); 0.4175 in series [1] (period 6–48 h). For the same molecule, the “Hill′s slope” value in series [1] (period 12–48 h) came to 0.2919; in the series with M. gallisepticum [2] (index AUC24 h/MIC) it was 3.1997; with M. gallisepticum [2] (index Cmax/MIC) it was 1.3842. In addition, in the series with M. gallisepticum [3], the “AUC at 0–24 h” value was 0.34 to 6.19 µg·h/mL. For the same molecule, the “AUC at 24–48 h” value in the series with M. gallisepticum [3] fell in the range of 0.57 to 7.69 µg·h/mL. Moreover, the “AUC at 48–72 h” value with M. gallisepticum [3] fell in the range of 0.62 to 8.23 µg·h/mL.

Source of the values: article PMC10846240, “Pharmacokinetic/pharmacodynamic integration of amphenmulin: a novel pleuromutilin derivative against Mycoplasma gallisepticum” (Microbiology Spectrum, 2023).
